Experimental data taken from patent US20260250325A1, “Antiviral Polypeptide Membrane Fusion Inhibitor, and Preparation Method and Application Thereof” (priority 2025, published 2026).
Where a SMILES comes first, the peptide text is derived from it. The star is where a group is joined. Succinyl(4-O-cholesteryl) = CC(C)CCC[C@@H](C)[C@H]1CC[C@H]2[C@@H]3CC=C4C[C@@H](OC(=O)CCC(=O)*)CC[C@]4(C)[C@H]3CC[C@]12C

test system: RSV A long virus strain; format: cell-based; conditions: CC50/IC50, HEp-2 cells
Experimental: In this embodiment, an RSV-A long virus strain was used as an infection virus in the present disclosure. The anti-RSV activity of the synthesized polypeptide was determined through CPE detection.
The inhibitory activity of the compounds of Table 1-1-Table 1-5, positive polypeptide in Table 1-11, and positive control T-118 against the RSV-A long virus strain was detected.
Human Epithelial Pharyngeal Carcinoma Cells (HEp-2) were from the American Type Culture Collection (ATCC), with a catalog number CCL-23. The cells were cultured in a DMEM culture solution in which 10% fetal bovine serum, 1% sodium pyruvate, 1% nonessential amino acids, 2 mM glutamine, 100 U/mL penicillin, and 100 μg/mL streptomycin were added. The RSV A long virus strain was from the ATCC, with a catalog number VR-26.
This study used a plaque reduction experiment to detect the in-vitro activity of a test sample against the RSV A long virus strain. The test sample and a control compound were tested at 8 concentrations in duplicated wells. The HEp-2 cells were digested with trypsin and then diluted to a concentration of 300,000 cells per milliliter by using an experimental culture solution. The diluted cells were added to a 96-well cell test board, with 100 μL per well, corresponding to 30000 cells per well. The cells were cultured overnight in a 37° C. incubator with 5% CO2. On the second day, the test sample was diluted in an experimental culture medium at a fold ratio. The sample diluted at a fold ratio and an equal volume of virus (100 PFU per well) were well mixed and incubated at 37° C. in 5% CO2 for 1 h. Then, the culture solution in the 96-well cell test board was discarded, the sample virus mixed solution (200 μL) was added to the 96-well cell culture plate, and incubated at 37° C. in 5% CO2 for 2 hours. After 2 h, the sample virus mixed solution was discarded, and 200 μL of maintenance culture medium containing 0.8% CMC and the corresponding concentration of the test sample was added. A cell control (cells, without compound treatment or viral infection) and a viral control (cell infection virus, without compound treatment) were set. The cells were cultured for 1 day in the 37° C. incubator with 5% CO2. One day after viral infection, the culture medium was discarded, the cells were fixed with 4% paraformaldehyde, and then permeabilization was performed with 0.5% Triton X-100. After the plate was washed with DPBS, an RSV-specific antibody (RSV antibody, diluted 1:3000) was added and incubated at 37° C. for 1 h. Then, a secondary antibody (donkey anti-goat IgG, diluted 1:500) and incubated at 37° C. for 1 h. The secondary antibody was discarded, a TrueBlue solution was added, dyeing was performed for 10 min; and the plate was washed with running water and then air-dried, and the number of spots in each well was counted by using a microplate imaging counter. Raw data was used for calculating the antiviral activity of the samples.
The raw data for plaque counts and cell viability tests were used for analyzing the antiviral activity and cytotoxicity of the test samples, respectively. A calculation formula was shown as follows.
% inhibition rate=100−(sample value-cell control average value)/(virus control average value-cell control average value)×100%
Non-linear fitting analysis was performed on the inhibition rate of the sample by using GraphPad Prism (version 10), so as to calculate the IC50 and CC50 values for the sample.
IC50: in an in-vitro antiviral activity experiment, IC50 represented an inhibition ability indicator of a compound to be tested against the Hep-2 cells infected by the RSV A long virus strain.

SMILES	Safety index (SI)
CC[C@H](C)[C@H](NC(=O)[C@H](CCCCN)NC(=O)[C@H](CCCCN)NC(=O)[C@H](CC(C)C)NC(=O)[C@H](CO)NC(=O)[C@H](CCC(=O)O)NC(=O)[C@H](CCC(=O)O)NC(=O)[C@@H](NC(=O)[C@H](CCCCN)NC(=O)[C@H](CCCCN)NC(=O)[C@H](CC(N)=O)NC(=O)[C@@H](NC(=O)[C@H](CCC(=O)O)NC(=O)[C@H](CCC(=O)O)NC(=O)[C@@H](NC(=O)[C@H](CCCCN)NC(=O)[C@H](CCCCN)NC(=O)[C@H](CCCCN)NC(=O)[C@H](CC(=O)O)NC(=O)[C@H](Cc1ccccc1)NC(=O)[C@H](CCC(=O)O)NC(=O)[C@H](CC(=O)O)NC(C)=O)[C@@H](C)CC)C(C)C)[C@@H](C)CC)C(=O)N[C@@H](CCC(=O)O)C(=O)N[C@@H](CCC(=O)O)C(=O)N[C@@H](CO)C(=O)N[C@@H](CC(=O)O)C(=O)N[C@@H](CCCCN)C(=O)N[C@@H](CCCCN)C(=O)N[C@@H](CC(C)C)C(=O)N[C@@H](CCC(=O)O)C(=O)N[C@@H](CCC(=O)O)C(=O)N[C@H](C(=O)N[C@@H](CCC(=O)O)C(=O)N[C@@H](C)C(=O)N[C@@H](C)C(=O)N[C@@H](C)C(=O)N[C@@H](CCCCN)C(=O)N[C@@H](CCCCNC(=O)CCC(=O)O[C@H]1CC[C@@]2(C)C(=CC[C@H]3[C@@H]4CC[C@H]([C@H](C)CCCC(C)C)[C@@]4(C)CC[C@@H]32)C1)C(N)=O)C(C)C [Compound 22] (Ac-DEFDKKKIEEVNKKIEESLKKIEESDKKLEEVEAAAKK(Succinyl(4-O-cholesteryl))-NH2)	324
CC[C@H](C)[C@H](NC(=O)[C@H](CCCCN)NC(=O)[C@H](CCC(=O)O)NC(=O)[C@H](CC(C)C)NC(=O)[C@H](CO)NC(=O)[C@H](CCC(N)=O)NC(=O)[C@H](CC(N)=O)NC(=O)[C@@H](NC(=O)[C@H](CCCCN)NC(=O)[C@H](CCC(=O)O)NC(=O)[C@H](CC(N)=O)NC(=O)[C@@H](NC(=O)[C@H](CCC(N)=O)NC(=O)[C@H](CO)NC(=O)[C@H](C)NC(=O)[C@H](CC(=O)O)NC(=O)[C@H](Cc1ccccc1)NC(=O)[C@@H](NC(=O)[C@H](CC(C)C)NC(=O)[C@H](CCC(=O)O)NC(=O)[C@H](CC(=O)O)NC(=O)[C@H](Cc1ccc(O)cc1)NC(C)=O)C(C)C)C(C)C)[C@@H](C)CC)C(=O)N[C@@H](CCCNC(=N)N)C(=O)N[C@@H](CCCCN)C(=O)N[C@@H](CO)C(=O)N[C@@H](CC(=O)O)C(=O)N[C@@H](CCC(=O)O)C(=O)N[C@@H](CC(C)C)C(=O)N[C@@H](CC(C)C)C(=O)N[C@@H](Cc1c[nH]cn1)C(=O)N[C@@H](CC(N)=O)C(=O)N[C@H](C(N)=O)C(C)C [Compound 23] (Ac-YDELVFDASQVNEKINQSLEKIRKSDELLHNV-NH2)	>3.43
CC[C@H](C)[C@H](NC(=O)[C@H](CCCCN)NC(=O)[C@H](CCC(=O)O)NC(=O)[C@H](CC(C)C)NC(=O)[C@H](CO)NC(=O)[C@H](CCC(N)=O)NC(=O)[C@H](CC(N)=O)NC(=O)[C@@H](NC(=O)[C@H](CCCCN)NC(=O)[C@H](CCC(=O)O)NC(=O)[C@H](CC(N)=O)NC(=O)[C@@H](NC(=O)[C@H](CCC(N)=O)NC(=O)[C@H](CO)NC(=O)[C@H](C)NC(=O)[C@H](CC(=O)O)NC(=O)[C@H](Cc1ccccc1)NC(=O)[C@@H](NC(=O)[C@H](CC(C)C)NC(=O)[C@H](CCC(=O)O)NC(=O)[C@H](CC(=O)O)NC(=O)[C@H](Cc1ccc(O)cc1)NC(C)=O)C(C)C)C(C)C)[C@@H](C)CC)C(=O)N[C@@H](CCCNC(=N)N)C(=O)N[C@@H](CCCCN)C(=O)N[C@@H](CO)C(=O)N[C@@H](CC(=O)O)C(=O)N[C@@H](CCC(=O)O)C(=O)N[C@@H](CC(C)C)C(=O)N[C@@H](CC(C)C)C(=O)N[C@@H](Cc1c[nH]cn1)C(=O)N[C@@H](CC(N)=O)C(=O)N[C@H](C(=O)NCC(=O)N[C@@H](CO)C(=O)NCC(=O)N[C@@H](CO)C(=O)NCC(=O)N[C@@H](CCCCNC(=O)CCC(=O)O[C@H]1CC[C@@]2(C)C(=CC[C@H]3[C@@H]4CC[C@H]([C@H](C)CCCC(C)C)[C@@]4(C)CC[C@@H]32)C1)C(N)=O)C(C)C [Compound 25] (Ac-YDELVFDASQVNEKINQSLEKIRKSDELLHNVGSGSGK(Succinyl(4-O-cholesteryl))-NH2)	260
CC[C@H](C)[C@H](NC(=O)[C@H](CO)NC(=O)[C@H](C)NC(=O)[C@H](CC(=O)O)NC(=O)[C@H](Cc1ccccc1)NC(=O)[C@H](CCC(=O)O)NC(=O)[C@H](CC(=O)O)NC(C)=O)C(=O)N[C@@H](CO)C(=O)N[C@@H](CCC(N)=O)C(=O)N[C@H](C(=O)N[C@@H](CC(N)=O)C(=O)N[C@@H](CCC(=O)O)C(=O)N[C@@H](CCCCN)C(=O)N[C@H](C(=O)N[C@@H](CC(N)=O)C(=O)N[C@@H](CCC(N)=O)C(=O)N[C@@H](CO)C(=O)N[C@@H](CC(C)C)C(=O)N[C@@H](CCC(=O)O)C(=O)N[C@@H](CCC(=O)O)C(=O)N[C@H](C(=O)N[C@@H](CCCNC(=N)N)C(=O)N[C@@H](CCCCN)C(=O)N[C@@H](CO)C(=O)N[C@@H](CC(=O)O)C(=O)N[C@@H](CCC(=O)O)C(=O)N[C@@H](CC(C)C)C(=O)N[C@@H](CC(C)C)C(=O)N[C@@H](Cc1c[nH]cn1)C(=O)N[C@@H](CC(N)=O)C(=O)N[C@@H](CCC(=O)O)C(=O)N[C@@H](C)C(=O)N[C@@H](C)C(=O)N[C@@H](C)C(=O)N[C@@H](CCCCN)C(=O)N[C@@H](CCCCNC(=O)CCC(=O)O[C@H]1CC[C@@]2(C)C(=CC[C@H]3[C@@H]4CC[C@H]([C@H](C)CCCC(C)C)[C@@]4(C)CC[C@@H]32)C1)C(N)=O)[C@@H](C)CC)[C@@H](C)CC)C(C)C [Compound 28] (Ac-DEFDASISQVNEKINQSLEEIRKSDELLHNEAAAKK(Succinyl(4-O-cholesteryl))-NH2)	709
CC[C@H](C)[C@H](NC(=O)[C@H](CCCCN)NC(=O)[C@H](CCC(=O)O)NC(=O)[C@H](CC(C)C)NC(=O)[C@H](CO)NC(=O)[C@H](CCC(N)=O)NC(=O)[C@H](CC(N)=O)NC(=O)[C@@H](NC(=O)[C@H](CCCCN)NC(=O)[C@H](CCC(=O)O)NC(=O)[C@H](CC(N)=O)NC(=O)[C@@H](NC(=O)[C@H](CCC(N)=O)NC(=O)[C@H](CO)NC(=O)[C@H](C)NC(=O)[C@H](CC(=O)O)NC(=O)[C@H](Cc1ccccc1)NC(=O)[C@@H](NC(=O)[C@H](CC(C)C)NC(=O)[C@H](CCC(=O)O)NC(=O)[C@H](CC(=O)O)NC(=O)[C@H](Cc1ccc(O)cc1)NC(C)=O)C(C)C)C(C)C)[C@@H](C)CC)C(=O)N[C@@H](CCCNC(=N)N)C(=O)N[C@@H](CCCCN)C(=O)N[C@@H](CO)C(=O)N[C@@H](CC(=O)O)C(=O)N[C@@H](CCC(=O)O)C(=O)N[C@@H](CC(C)C)C(=O)N[C@@H](CC(C)C)C(=O)N[C@@H](Cc1c[nH]cn1)C(=O)N[C@@H](CC(N)=O)C(=O)N[C@H](C(=O)N[C@@H](CCC(=O)O)C(=O)N[C@@H](C)C(=O)N[C@@H](C)C(=O)N[C@@H](C)C(=O)N[C@@H](CCCCN)C(=O)N[C@@H](CCCCNC(=O)CCC(=O)O[C@H]1CC[C@@]2(C)C(=CC[C@H]3[C@@H]4CC[C@H]([C@H](C)CCCC(C)C)[C@@]4(C)CC[C@@H]32)C1)C(N)=O)C(C)C [Compound 30] (Ac-YDELVFDASQVNEKINQSLEKIRKSDELLHNVEAAAKK(Succinyl(4-O-cholesteryl))-NH2)	415
